A mixed list of measured activities; the numbers were collected in NIAID ChemDB.

Shared fields: whole-cell or culture tests; species: Candida albicans; measure: MIC

Lines come from different laboratories, so protocols vary.

| smiles | strain | read by | result |
|---|---|---|---|
| CNc1ccc(C(=O)CC(O)CCC(C)C2OC(=O)CC(O)CC(=O)CC(O)CC(O)CC(O)CC(O)CC3(O)CC(O)C(C(=O)N4CCN(CCO)CC4)C(CC(O[C@@H]4O[C@H](C)[C@@H](O)[C@H](NC(=O)CN5CCN(CCO)CC5)[C@@H]4O)/C=C/C=C/C=C/C=C\C=C/C=C/C=C/C2C)O3)cc1 | 200 |  | 0.06 µg/mL |
| Nc1ncnc2c1ncn2[C@@H]1O[C@H](C(=O)O)[C@@H](NC(=O)C(N)CSCc2ccccc2)[C@H]1O | FP633 |  | 0.1 µg/mL |
| CC(N1CCN(c2ccc(-n3ncnn3)cc2)C1=O)C(O)(Cn1cncn1)c1ccc(F)cc1F | TIMM1756 |  | 0.004 µg/mL |
| C[C@@H](n1cnc2cc(/C(N)=N/S(N)(=O)=O)ccc2c1=O)[C@](O)(Cn1cncn1)c1ccc(F)cc1F | 76 strains |  | 10 µg/mL |
| C[C@H](N1CCN(c2ccc(-n3cccn3)cc2)C1=O)[C@@](O)(Cn1cncn1)c1ccc(F)cc1F | TA |  | 0.002 µg/mL |
| C[C@H]1[C@H](O)[C@@H](C)/C=C/C=C/C=C/C=C/C=C/C=C/C=C/[C@H](O[C@@H]2O[C@H](C)[C@@H](O)[C@H](N)[C@@H]2O)C[C@@H]2O[C@](O)(C[C@@H](O)C[C@@H](O)CC[C@H](O)[C@@H](O)C[C@@H](O)CC(=O)O[C@H]1C)C[C@H](O)[C@H]2C(=O)O | 73 |  | 0.96 µg/mL |
| COc1ccc(C[C@H](NC(=O)NN)C(=O)N[C@H]2[C@@H](O)[C@H](n3cnc4c(N)ncnc43)O[C@@H]2C(=O)NN)cc1 | FP633 |  | >100 µg/mL |
| CCC1C=C(c2cccc(Cl)c2)C(=O)O1 | ATCC 44859 |  | 62.5 µM |
| Nc1ncnc2c1ncn2[C@@H]1O[C@H](C(=O)NCCCC(N)C(=O)O)[C@@H](NC(=O)[C@H](N)CSCc2ccccc2)[C@H]1O | FP633 |  | >100 µg/mL |
| C[C@@H](n1cnc2cccc(F)c2c1=O)[C@](O)(Cn1cncn1)c1ccc(F)cc1F | 76 strains |  | 20 µg/mL |
| CC(/C=C/C=C(\C)C(O)C(C)C(=O)O[C@H]1C[C@@H](C)C=C2C=C[C@]3(C)O[C@@H](O)CC(=O)[C@]3(C)[C@H]21)=C\C=C\C(=O)O | ATCC 10231 |  | 0.78 µg/mL |
| N=C(N)c1ccc2nc(-c3ccc(-c4nc5ccc(C(=N)N)cc5[nH]4)[nH]3)[nH]c2c1 | Isolate CA2601 fluconazole-resistant |  | 0.78 µg/mL |
| C#CCSCC(N)C(=O)N[C@H]1[C@@H](O)[C@H](n2cnc3c(N)ncnc32)O[C@@H]1C(=O)O | FP633 |  | 0.2 µg/mL |
| C[C@@H](n1ncn(-c2ccc(OCC(F)(F)C(F)F)cc2)c1=O)[C@](O)(Cn1cncn1)c1ccc(F)cc1F | 406 strains |  | ≤0.03 µg/mL |
| Cc1nc(-c2ccc(-n3cnn(C(C)C(O)(Cn4cncn4)c4ccc(F)cc4F)c3=O)cc2)co1 | TA |  | 0.004 µg/mL |
| C[C@@H](n1cnc2cc(S(=O)(=O)c3ccccc3)ccc2c1=O)[C@](O)(Cn1cncn1)c1ccc(F)cc1F | 406 strains |  | ≤0.03 µg/mL |
| CCC1C=C(c2ccc(Br)cc2)C(=O)O1 | ATCC 44859 |  | 125 µM |
| CCC(C)n1ncn(-c2ccc(N3CCN(c4ccc(OC[C@H]5CO[C@](Cn6cncn6)(c6ccc(Cl)cc6Cl)O5)cc4)CC3)cc2)c1=O | TIMM1850 |  | 0.016 µg/mL |
| Nc1ncnc2c1ncn2[C@@H]1O[C@H](C(=O)O)[C@@H](NC(=O)/C=C\c2ccccc2)[C@H]1O | FP633 |  | >100 µg/mL |
| CNc1ccc(C(=O)CC(O)CCC(C)C2OC(=O)CC(O)CC(=O)CC(O)CC(O)CC(O)CC(O)CC3(O)CC(O)C(C(=O)N4CCN(C)CC4)C(CC(O[C@@H]4O[C@H](C)[C@@H](O)[C@H](NC(=O)CN(C)C)[C@@H]4O)/C=C/C=C/C=C/C=C\C=C/C=C/C=C/C2C)O3)cc1 | 73 |  | 0.03 µg/mL |
| CC1C=C(c2ccc(F)c(F)c2)C(=O)O1 | ATCC 44859 |  | >125 µM |
| CC(N1CCN(c2ccc(-n3cnnn3)cc2)C1=O)C(O)(Cn1cncn1)c1ccc(F)cc1F | TIMM1756 |  | 0.008 µg/mL |
| C[C@H](n1cnc2cc(Cl)ccc2c1=O)[C@@](O)(Cn1cncn1)c1ccc(F)cc1F | 76 strains |  | 80 µg/mL |
| CC1C=C(c2ccc(F)cc2)C(=O)O1 | ATCC 44859 |  | >125 µM |
| Nc1ncnc2c1ncn2[C@@H]1O[C@H](C(=O)O)[C@@H](NC(=O)C(N)CSC/C=C\c2ccccc2)[C@H]1O | FP633 |  | 0.2 µg/mL |
| CNc1ccc(C(=O)CC(O)CCC(C)C2OC(=O)CC(O)CC(=O)CC(O)CC(O)CC(O)CC(O)CC3(O)CC(O)C(C(=O)N4CCN(CCO)CC4)C(CC(O[C@@H]4O[C@H](C)[C@@H](O)[C@H](NC(=O)CN(C)C)[C@@H]4O)/C=C/C=C/C=C/C=C\C=C/C=C/C=C/C2C)O3)cc1 | 73 |  | 0.0075 µg/mL |
| C[C@@H](n1cnc2cc(OCC(F)(F)F)ccc2c1=O)[C@](O)(Cn1cncn1)c1ccc(F)cc1F | 406 strains |  | 0.07 µg/mL |
| Nc1[nH]c(=O)ncc1F | ATCC 24433 | broth dilution | 4 µg/mL |
| CC(n1ncn(-c2ccc(Cn3ccnn3)cc2)c1=O)C(O)(Cn1cncn1)c1ccc(F)cc1F | TA |  | 0.5 µg/mL |

Again, the opening 4 rows:

smiles | strain | read by | result
CNc1ccc(C(=O)CC(O)CCC(C)C2OC(=O)CC(O)CC(=O)CC(O)CC(O)CC(O)CC(O)CC3(O)CC(O)C(C(=O)N4CCN(CCO)CC4)C(CC(O[C@@H]4O[C@H](C)[C@@H](O)[C@H](NC(=O)CN5CCN(CCO)CC5)[C@@H]4O)/C=C/C=C/C=C/C=C\C=C/C=C/C=C/C2C)O3)cc1 | 200 |  | 0.06 µg/mL
Nc1ncnc2c1ncn2[C@@H]1O[C@H](C(=O)O)[C@@H](NC(=O)C(N)CSCc2ccccc2)[C@H]1O | FP633 |  | 0.1 µg/mL
CC(N1CCN(c2ccc(-n3ncnn3)cc2)C1=O)C(O)(Cn1cncn1)c1ccc(F)cc1F | TIMM1756 |  | 0.004 µg/mL
C[C@@H](n1cnc2cc(/C(N)=N/S(N)(=O)=O)ccc2c1=O)[C@](O)(Cn1cncn1)c1ccc(F)cc1F | 76 strains |  | 10 µg/mL

An empty or dashed field is not shown.